# Source: PubChem BioAssay AID1259414 (Drosophila RNAi Screening Center, 2018)
# Assay: 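Host factors increasing or decreasing Wolbachia levels in cultured fly cells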 (primary screen)
# System: Drosophila JW18 cells infected with Wolbachia
# Reagent: long dsRNA against Drosophila genes, 0.25 µg dsRNA per well of a 384-well plate
# Time to read-out: 5 days
# Challenge: cells persistently infected with Wolbachia before knock-down; no added drug
# Read-out: 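Automated imaging of bacterial rRNA staining divided by host cell count, reported as plate-normalised robust z-score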
# Scale: Wolbachia per cell robust z: higher = more Wolbachia per host cell than the plate typical
# Rule for the call: 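Hit when robust z is 1.5 or more, or -1.5 or less, in at least two of three replicates; excludes dsRNAs with several or no targets, genes not expressed in JW18 and well A1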
# The screen tested about 24,000 reagents; this is a random part of those with a known target gene and a result. In the full data, about 1,210 (5%) are marked active. 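Inactive calls also include excluded dsRNAs with several or no targets, genes unexpressed in JW18, and well A1, regardless of score.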 Unmarked entries are inactive. A plus sign joins genes that one reagent is predicted to hit. No sequences are given here.
target gene,amplicon,"Wolbachia per cell robust z, rep 1","Wolbachia per cell robust z, rep 2","Wolbachia per cell robust z, rep 3"
lncRNA:CR32027,DRSC09571,0.546,-6.8,-0.326
Orp8,DRSC15110,-1.98,0.0403,0.054
Orp8,DRSC15712,-8.88,-0.866,0.14
Orp8,DRSC28849,-0.444,-0.114,0.305
CG3505,DRSC15489,0.404,0.807,1.41
CG13358 + Sec22,DRSC18538,-0.106,-0.696,-0.771
MED30,DRSC23135,-0.694,-0.516,-0.666
MED30,DRSC30026,-0.0975,-4.26,0.295
Gr47a,DRSC06221,-7.91,-0.0785,-2.54
CG9953,DRSC11106,-1.69,-0.113,-0.519
mt:CoI,DRSC40577,-0.274,-2.65,-2.15
RpLP0,DRSC11878,0.788,1.14,0.471
RpLP0,DRSC22110,1.85,0.734,1.29
Hsp23,DRSC11188,0.402,-0.243,0.0698
Hsp23,DRSC29302,1.83,0.233,0.764
CG4424,DRSC15576,0.618,-0.713,-0.399
RpS3A,DRSC17168,2,0.532,0.956
Cyp317a1,DRSC07366,-0.833,-0.101,-0.367
Fkbp39,DRSC16667,0.745,0.254,-5.49
Fkbp39,DRSC23792,-0.791,-0.869,0.358
CG17349,DRSC02610,1.34,0.434,0.79
PAN2,DRSC07115,0.0619,0.377,1.3
Kpc1,DRSC16107,0.413,0.846,2.02
Synd,DRSC15116,0.531,0.0113,1.55
CG5071,DRSC15710,-1.52,0.0972,0.468
CG5071,DRSC22570,0.682,0.22,0.656
CG5071,DRSC24514,-0.65,1.11,1.19
wmd,DRSC04436,0.154,-5.25,-1.29
wmd,DRSC29254,-0.939,-1.13,-0.66
CG18234,DRSC10309,-3.34,0.388,1.15
CG33230,DRSC08602,0.431,-0.446,-0.46
CG14567,DRSC11728,-0.236,0.515,0.00767
be,DRSC19607,0.646,0.572,-0.348
be,DRSC19944,-0.867,-0.891,-2.42
be,DRSC19945,-0.34,-0.113,-2.08
Lap1,DRSC07454,-1.47,-0.617,0.285
CG33798,DRSC37810,0.697,-1.25,0.875
wuc,DRSC06152,0.822,0.576,1.22
wuc,DRSC41520,0.169,1.08,1.14
pio,DRSC04386,0.806,-0.507,-0.357
pio,DRSC29371,0.472,1.09,0.909
CG32413,DRSC21591,0.765,-2,-1.38
PolE1,DRSC16112,-7.39 (active),0.693,-1.76
PolE1,DRSC27613,-0.828,-0.646,-0.232
CG32219,DRSC09641,-0.444,-0.22,-0.873
Grl65a,DRSC08837,0.937,0.693,0.49
Grl65a,DRSC25986,-0.0121,-0.826,-0.862
Mcad,DRSC09871,-0.96,0.451,-1.33
Mcad,DRSC25980,0.487,-1.33,-0.158
CG13670,DRSC10029,0.746,0.0811,-0.301
CG13670,DRSC26092,-0.289,-0.459,-1.33
jb,DRSC20531,-1.55,-1.29,-1.46
jb,DRSC41529,0.126,-0.742,0.764
CG30265,DRSC21592,-1.97,-1.65,0.116
CG10674,DRSC09775,0.509,0.562,-1.03
mRpL21,DRSC11100,0.439,-0.679,-7.63
CG3744,DRSC15511,-0.0234 (active),-2.61,-2.63
CG3744,DRSC29964,-0.348,-6.73,-0.262
Rtf1,DRSC04085,0.267,0.0823,0.0302
Rtf1,DRSC29441,-0.0443,1.63,0.14
CG15071,DRSC06504,0.314,-0.204,0.176
CG15071,DRSC28329,0.693,-0.476,-1.03
raw,DRSC03599,-8.79 (active),-2.36,0.0595
raw,DRSC03600,1.29,1.04,-4.15
raw,DRSC40814,1.01,-0.00193,-0.0162
NdufA3,DRSC18431,-0.43,0.472,-0.557
Elys,DRSC19571,-1.01,0.0342,0.315
rg,DRSC17726,0.746,-0.175,0.21
rg,DRSC18047,-0.229,-6.19,-0.84
rg,DRSC18049,-0.00314,0.415,1.31
rg,DRSC22086,-0.103,-0.938,0.711
rg,DRSC29144,-0.634,0.444,0.506
